{"source": "ChEMBL document CHEMBL2177030", "tested_on": "Mycobacterium tuberculosis", "assay": "Inhibition of Mycobacterium tuberculosis LipY assessed as residual enzyme activity pre-incubated for 30 mins with enzyme before substrate addition by pH-stat technique", "data": [{"smiles": "CCCCCCCCCCCCCCCCOP1(=O)CCCC(C(=O)OC)=C(C)O1", "note": "(stereo unspecified)", "values": [{"measurement": "Activity", "value": 6, "unit": "%"}]}]}
